{"source": "patent US20150018228A1", "about": "“ENZYME DETECTION BY MICROFLUIDICS” (priority 2011, published 2015)", "key": {"[1]": {"test_system": "Plasmodium falciparum topoisomerase I (pfTopI) (Plasmodium falciparum)", "assay": "activity assay", "settings": "purified recombinant protein, folded or branched DNA"}, "[2]": {"test_system": "Plasmodium falciparum topoisomerase I (pfTopI) (Plasmodium falciparum)", "assay": "enzyme reaction in vitro", "settings": "cleaves hTopI site plus additional sites close to 3'-end; 10 mM Tris pH 7.5, 5 mM MgCl2, 5 mM CaCl2, 37 C, with or without 60 uM CPT; purified recombinant protein; label: 5'-32P on OL62"}, "[3]": {"molecular_target": "T1, Plasmodium falciparum topoisomerase I (endogenous, infected blood) (Plasmodium falciparum) (UniProt Q26024)", "T1 sequence (looked up, limits assumed)": "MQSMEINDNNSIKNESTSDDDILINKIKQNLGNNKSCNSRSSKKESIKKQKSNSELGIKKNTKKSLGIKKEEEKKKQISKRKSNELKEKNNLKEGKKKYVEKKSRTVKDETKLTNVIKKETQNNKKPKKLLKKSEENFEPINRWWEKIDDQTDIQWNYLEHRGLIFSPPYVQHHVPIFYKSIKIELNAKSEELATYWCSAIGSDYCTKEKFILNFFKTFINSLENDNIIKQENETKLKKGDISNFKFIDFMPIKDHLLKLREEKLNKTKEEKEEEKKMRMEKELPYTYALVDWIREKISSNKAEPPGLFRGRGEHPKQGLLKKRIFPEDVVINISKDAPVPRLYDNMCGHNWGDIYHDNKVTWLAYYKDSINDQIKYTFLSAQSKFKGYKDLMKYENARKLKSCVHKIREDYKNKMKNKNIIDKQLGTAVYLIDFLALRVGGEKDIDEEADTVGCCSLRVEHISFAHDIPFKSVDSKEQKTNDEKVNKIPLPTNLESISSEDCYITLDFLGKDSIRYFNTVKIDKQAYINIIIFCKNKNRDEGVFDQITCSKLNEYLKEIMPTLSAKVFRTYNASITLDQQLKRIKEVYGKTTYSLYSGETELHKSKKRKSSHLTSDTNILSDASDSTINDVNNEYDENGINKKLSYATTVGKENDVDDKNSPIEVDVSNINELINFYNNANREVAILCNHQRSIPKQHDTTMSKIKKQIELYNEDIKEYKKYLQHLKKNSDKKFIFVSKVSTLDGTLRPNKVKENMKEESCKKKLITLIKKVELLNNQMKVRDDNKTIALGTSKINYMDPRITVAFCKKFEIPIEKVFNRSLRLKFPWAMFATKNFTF", "assay": "activity assay", "settings": "REEAD signal only with extract of P. falciparum-infected blood; protein in an extract; folded or branched DNA"}, "[4]": {"settings": "circularization by REEAD, less efficient than S1"}}, "note": "For some assays here: For at least one entry, the source does not settle the construct or the ends of the probe. For some assays here: Tags and fusion partners may be left off the protein sequences shown.", "data": [{"sequence": "AGAAAAATTTTTAAAAAAACTGTGAAGATCGCTTATTTTTTTAAAAATTTTTCTAAGTCTTTTAGATCCCTCAATGCTGCTGCTGTACTACGATCTAAAAGACTTAGA [S(TopI)]", "values": [{"measurement": "activity on this sequence", "setting": "[1]; 3'-amine (as printed in sequence list), circularization by REEAD, pfTopI more salt tolerant than hTopI", "result": "active"}]}, {"sequence": "ATTATAATTTTTTGGAACTTCGAACGACTCAGAATGACTGTGAAGATCGCTTATCCTCAATGCACATGTTTGGCTCCCATTCTGAGTCGTTCGAAGTTCCAAAAAATT [pfTopI(S3)]", "values": [{"measurement": "activity on this sequence", "setting": "[1]; [4]", "result": "active"}]}, {"sequence": "ATTTTTCTAAGTCTTTTAGATCGAACGACTCAGAATGACTGTGAAGATCGCTTATCCTCAATGCACATGTTTGGCTCCCATTCTGAGTCGTTCGATCTAAAAGACTTAGA [pfTopI(S5)]", "values": [{"measurement": "activity on this sequence", "setting": "[1]; [4]", "result": "active"}]}, {"sequence": "CATACATTATACGAAGTTATGAGCGTCTGAGTATGACTGTGAAGATCGCTTATCAGTGAATGCGAGTCCGTCTACTCATACTCAGACGCTCATAACTTCGTATAATGT [pfTopI(S2)]", "values": [{"measurement": "activity on this sequence", "setting": "[1]; [4]", "result": "active"}]}, {"sequence": "GCCTGCAGGTCGACTCTAGAGGATCTAAAAGACTTAGAAAAATTTTTAGGCTCAATCTAGAAGTTCCTACTTAGA / ATTTTTCTAAGTAGGAACTTCTAGATTGAGCCTAAAAATTTTTCTAAGTCTTTTAGATCCTCTAGAGTCGACCTGCAGGC [OL62/OL63]", "values": [{"measurement": "activity on this sequence", "setting": "[2]", "result": "active"}]}, {"sequence": "TCTAGAAAGTATAGGAACTTCGAACGACTCAGAATGACTGTGAAGATCGCTTATCCTCAATGCACATGTTTGGCTCCCATTCTGAGTCGTTCGAAGTTCCTATACTTT [pfTopI(S1)]", "values": [{"measurement": "activity on this sequence", "setting": "[3]", "result": "active"}, {"measurement": "activity on this sequence", "setting": "[1]; cleavage-ligation circularization detected by RCA (REEAD), most efficient of S1-S5, 5 mM EDTA, 37 C", "result": "active"}]}, {"sequence": "TTATAATTTTTTGGAACTTCGAACGACTCAGAATGACTGTGAAGATCGCTTATCCTCAATGCACATGTTTGGCTCCCATTCTGAGTCGTTCGAAGTTCCAAAAAATT [pfTopI(S4)]", "values": [{"measurement": "activity on this sequence", "setting": "[1]; [4]", "result": "active"}]}]}
